Mutational tolerance of the Zika virus NS2B-NS3 protease

Source: Ni et al. 2025 (doi:10.1038/s41467-025-63602-z), supplementary data.

The scanned region of Zika virus MR766 is shown below (positions 1-308): NS2B is 2-131, NS3 begins at position 132.
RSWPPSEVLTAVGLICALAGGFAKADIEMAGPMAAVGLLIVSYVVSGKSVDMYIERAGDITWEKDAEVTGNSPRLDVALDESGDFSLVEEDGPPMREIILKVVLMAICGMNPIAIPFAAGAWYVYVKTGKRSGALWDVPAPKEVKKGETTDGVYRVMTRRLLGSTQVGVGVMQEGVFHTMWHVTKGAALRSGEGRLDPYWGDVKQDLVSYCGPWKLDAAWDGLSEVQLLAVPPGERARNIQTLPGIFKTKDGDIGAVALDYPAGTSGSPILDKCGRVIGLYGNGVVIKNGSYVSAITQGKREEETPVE

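Libraries of single mutants were passaged as virus pools on Huh-7.5 cells. Deep sequencing gave the change in frequency of each mutant relative to wild type, averaged over three replicate libraries (two for positions 207-308). The aim was to find sites where inhibitor-binding pockets cannot change.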

Scale: log2 effect, wild type = 0; the lower, the more harmful to the virus.
A change reads original residue, position, new residue.
Six mutants with high scores were retested singly and none clearly outgrew wild type, so positive values are not proof of better growth.
Stop codons (*) centre on -7 and mark the level of dead virus.
Positions 1-103, 104-206 and 207-308 were made and measured as separate libraries.
The authors count -1 or higher as tolerated. Position 1 is the last residue of NS2A.

mutation,log2 effect
V41*,-7.33
V41A,-1.53
V41C,-1.35
V41D,-5.40
V41E,-4.99
V41F,-5.41
V41G,-0.65
V41H,-5.25
V41I,-0.74
V41K,-5.16
V41L,-2.31
V41M,-3.16
V41N,-5.26
V41P,-6.43
V41Q,-5.35
V41R,-6.81
V41S,-4.21
V41T,-3.46
V41W,-5.36
V41Y,-5.66
S42*,-7.55
S42A,-1.97
S42C,-5.56
S42D,-4.99
S42E,-5.51
S42F,-5.55
S42G,0.36
S42H,-5.29
S42I,-6.27
S42K,-6.19
S42L,-7.64
S42M,-6.17
S42N,-4.56
S42P,-6.78
S42Q,-6.06
S42R,-5.56
S42T,-1.42
S42V,-6.61
S42W,-6.25
S42Y,-5.57
Y43*,-7.58
Y43A,-5.46
Y43C,-5.70
Y43D,-5.58
Y43E,-5.59
Y43F,-4.24
Y43G,-5.88
Y43H,-5.42
Y43I,-6.35
Y43K,-5.98
Y43L,-6.00
Y43M,-6.15
Y43N,-6.40
Y43P,-6.27
Y43Q,-5.93
Y43R,-7.19
Y43S,-7.36
Y43T,-6.69
Y43V,-6.48
Y43W,-0.69
V44*,-7.17
V44A,-4.78
V44C,-3.64
V44D,-4.48
V44E,-5.22
V44F,-4.89
V44G,-6.59
V44H,-5.60
V44I,-1.60
V44K,-6.04
V44L,-5.83
V44M,-5.32
V44N,-5.04
V44P,-6.55
V44Q,-5.65
V44R,-7.20
V44S,-7.12
V44T,-3.30
V44W,-5.95
V44Y,-5.98
V45*,-6.64
V45A,-4.96
V45C,-4.22
V45D,-4.96
V45E,-4.64
V45F,-4.56
V45G,-6.62
V45H,-6.06
V45I,-1.63
V45K,-5.55
V45L,-5.07
V45M,-5.17
V45N,-5.83
V45P,-6.73
V45Q,-5.47
V45R,-7.19
V45S,-7.13
V45T,-6.49
V45W,-5.77
V45Y,-4.45

The last 6 entries again:

V45Q gave -5.47.
V45R gave -7.19.
V45S gave -7.13.
V45T gave -6.49.
V45W gave -5.77.
V45Y gave -4.45.